System: anthrax lethal toxin
Conditions: Day 42 serum, macrophage assay, serum dilutions 1:32 through 1:128, p=0.05 ANOVA

cholera toxin
lethal toxin neutralizing antibody response in serum: did not induce lethal toxin neutralizing responses greater than those detected in mice immunized with rPA alone
